The text below walks through data of patent US9783838B2, “PmST3 enzyme for chemoenzymatic synthesis of alpha-2-3-sialosides” (The Regents of the University of California, priority 2012, dated 2017).

In one data set the test system is Galβ1-3GlcNAcβPro2AA. Nature of the data set: purified protein, by the assay type. Conditions: other: apparent, 37° C., Tris-HCl pH 7.5, other substrate fixed at 1 mM.
Another data set relates to LacβPro2AA. Nature of the data set: purified protein, by the assay type. Conditions: other: apparent, 37° C., Tris-HCl pH 7.5, other substrate fixed at 1 mM.

“PmST3Δ35-His6 (Pasteurella multocida subsp. multocida str. Pm70)”: in the data set on Galβ1-3GlcNAcβPro2AA, the Km (usually the concentration of substrate that gives half-maximal velocity) worked out at 14 ± 1 mM; the Vmax (commonly the top rate of the reaction or transport when substrate is in excess) amounted to 340 µM/min; the kcat (as a rule, the number of substrate molecules converted per active site and unit of time at saturation) turned out to be 0.25 s⁻¹; the kcat/Km (in general, the turnover number divided by the Michaelis constant) stood at 16.7 M⁻¹ s⁻¹. For the same substance, in the data set with LacβPro2AA, the Km came to 4.9 ± 0.6 mM, the Vmax was 270 µM/min, the kcat was determined as 0.75 s⁻¹ and the kcat/Km was 153 M⁻¹ s⁻¹.
